Compound potency records, mixed from different reports. Data source: NIAID ChemDB in PubChem.

Common to all: tests in culture; species: Mycobacterium avium complex

Blank or dashed fields: not listed here. MIC50, MIC90 and the like: level of inhibition, or share of isolates inhibited. Lines come from different laboratories, so protocols vary.

structure	endpoint	strain or isolate	result
Clc1ccc2c(c1)nc1cc(Nc3ccccc3)c(=NC3CCCCC3)cc-1n2-c1ccccc1	MIC90	-	0.17 µg/mL
CO[C@H]1/C=C/O[C@@]2(C)Oc3c(C)c(O)c4c(O)c(c(/C=N/N5CCN(C/C=C/c6ccccc6)CC5)c(O)c4c3C2=O)NC(=O)/C(C)=C\C=C\[C@H](C)[C@H](O)[C@@H](C)[C@@H](O)[C@@H](C)[C@H](OC(C)=O)[C@@H]1C	MIC	CH4	0.06 µg/mL
NCC1(O)CCN(c2c(F)cc3c(=O)c(C(=O)O)cn(N4CC4)c3c2F)C1	MIC	1915112	32 µg/mL
CO[C@H]1/C=C/O[C@@]2(C)Oc3c(C)c(O)c4c(O)c(c(/C=N/N5CCN(C)CC5)c(O)c4c3C2=O)NC(=O)/C(C)=C\C=C\[C@H](C)[C@H](O)[C@@H](C)[C@@H](O)[C@@H](C)[C@H](OC(C)=O)[C@@H]1C	MIC	-	>25 µg/mL
NNC(=O)c1ccncc1	MIC	1168	8 µg/mL
CC1CCN(c2c(F)cc3c(=O)c(C(=O)O)cn(C4CC4)c3c2F)C1	MIC	PI12/39	2 µg/mL
NC[C@H]1O[C@H](O[C@H]2[C@H](O)[C@@H](O[C@H]3O[C@H](CO)[C@@H](O)[C@H](N)[C@H]3O)[C@H](N)C[C@@H]2N)[C@H](O)[C@@H](O)[C@@H]1O	MIC90	-	5.45 µg/mL
COc1c(N2C[C@@H]3CCCN[C@@H]3C2)c(F)cc2c(=O)c(C(=O)O)cn(C3CC3)c12	MIC	101	0.1 µg/mL
NNC(=O)c1ccncc1	MIC	13034 (serotype 18)	1.6 µg/mL
Clc1ccc(Nc2cc3nc4ccccc4n(-c4ccc(Cl)cc4)c-3cc2=NCCCN2CCCC2)cc1	MIC90	10 srtains	0.83 µg/mL
CC[C@H]1OC(=O)[C@H](C)[C@@H](O[C@H]2C[C@@](C)(OC)[C@@H](O)[C@H](C)O2)[C@H](C)[C@@H](O[C@@H]2O[C@H](C)C[C@H](N(C)C)[C@H]2O)[C@](C)(OC)C[C@@H](C)C(=O)[C@H](C)[C@@H](O)[C@]1(C)O	MIC	101	4 µg/mL
CO[C@H]1/C=C/O[C@@]2(C)Oc3c(C)c(O)c4c(=O)c(c5oc6cc(N7CCN(CC(C)C)CC7)cc(=O)c6nc5c4c3=C2O)NC(=O)/C(C)=C\C=C\[C@H](C)[C@H](O)[C@@H](C)[C@@H](O)[C@@H](C)[C@H](OC(C)=O)[C@@H]1C	MIC	N-444	0.06 µg/mL
CN[C@@H]1[C@@H](O)[C@@H](O[C@@H]2[C@@H](O)[C@H](O[C@H]3O[C@H](CN)CC[C@H]3N)[C@@H](N)C[C@H]2N)OC[C@]1(C)O	MIC90	25 isolates	>64 µg/mL
CC[C@@H](CO)NCCN[C@@H](CC)CO	MIC	101	16 µg/mL
CCC1CCN(c2c(F)cc3c(=O)c(C(=O)O)cn(C4CC4)c3c2F)C1	MIC	1760694	8 µg/mL
CCCN1CCN(c2cc(=O)c3nc4c(oc3c2)c2c(=O)c3c(O)c(C)c5c(c34)=C(O)[C@@](C)(O/C=C/[C@H](OC)[C@@H](C)[C@@H](OC(C)=O)[C@H](C)[C@H](O)[C@H](C)[C@@H](O)[C@@H](C)/C=C/C=C(/C)C(=O)N2)O5)CC1	MIC	31F093T	0.07 µg/mL
CC1CN(c2c(F)c(N)c3c(=O)c(C(=O)O)cn(C4CC4)c3c2F)CCN1C	MIC	1172733	1 µg/mL
CCCC[C@@H]1CC(=O)[C@]2(O)O[C@@H]3[C@@H](NC)[C@@H](O)[C@@H](NC)[C@H](O)[C@H]3O[C@@H]2O1	MIC90	-	21.9 µg/mL
NC1[C@H]2CN(c3nc4c(cc3F)c(=O)c(C(=O)O)cn4-c3ccc(F)cc3F)C[C@@H]12	MIC50	22 strains	>256 µg/mL
O=C1/C(=C\c2ccc(Cl)cc2)N=C(c2ccccc2)N1C(=S)N/N=C/c1ccccc1	MIC	NJ211	0.25 µg/mL
CO[C@H]1/C=C/O[C@@]2(C)Oc3c(C)c(O)c4c(O)c(c(/C=N/N5CCN(C)CC5)c(O)c4c3C2=O)NC(=O)/C(C)=C\C=C\[C@H](C)[C@H](O)[C@@H](C)[C@@H](O)[C@@H](C)[C@H](OC(C)=O)[C@@H]1C	MIC50	52 strains	6.25 µg/mL
NC1CCN(c2c(F)cc3c(=O)c(C(=O)O)cn(C4CC4)c3c2F)C1	MIC90	-	16 µg/mL
CN[C@@H]1[C@H](O[C@H]2[C@H](O[C@H]3[C@H](O)[C@@H](O)[C@H](N=C(N)N)[C@@H](O)[C@@H]3N=C(N)N)O[C@@H](C)[C@]2(O)C=O)O[C@@H](CO)[C@H](O)[C@H]1O	MIC	13011 (serotype 16)	12.5 µg/mL
Clc1ccc(Nc2cc3nc4ccccc4n(-c4ccc(Cl)cc4)c-3cc2=NC2CCCC2)cc1	MIC90	-	0.21 µg/mL
NNC(=O)c1ccncc1	MIC	101	64 µg/mL
C[C@@H]1CN(c2c(F)c(N)c3c(=O)c(C(=O)O)cn(C4CC4)c3c2F)C[C@H](C)N1	MIC90	20 strains	1.56 µg/mL
O=C(O)c1cn(C2CC2)c2c(F)c(N3CCC(N4CCCC4)C3)c(F)cc2c1=O	MIC50	-	1 µg/mL
NNC(=O)c1ccncc1	MIC90	20 strains	12.5 µg/mL
CC(C)N=c1cc2n(-c3ccccc3)c3ccccc3nc-2cc1Nc1ccc(Cl)cc1	MIC90	-	0.17 µg/mL
NC[C@H]1O[C@H](O[C@H]2[C@H](O)[C@@H](O[C@H]3O[C@H](CO)[C@@H](O)[C@H](N)[C@H]3O)[C@H](N)C[C@@H]2N)[C@H](O)[C@@H](O)[C@@H]1O	MIC	Isolate C-31	≥400 µg/mL
CO[C@H]1/C=C/O[C@@]2(C)Oc3c(C)c(O)c4c(O)c(c(/C=N/N5CCN(C)CC5)c(O)c4c3C2=O)NC(=O)/C(C)=C\C=C\[C@H](C)[C@H](O)[C@@H](C)[C@@H](O)[C@@H](C)[C@H](OC(C)=O)[C@@H]1C	MIC	N-966	>100 µg/mL
CN1CCCC1CCN=c1cc2n(-c3ccc(Cl)cc3)c3ccccc3nc-2cc1Nc1ccccc1	MIC50	10 srtains	1.28 µg/mL
CC1CN(c2c(F)cc3c(=O)c(C(=O)O)cn(C4CC4)c3c2F)CC(C)N1	MIC90	14 strains	2 µg/mL
O=C(O)c1cn(C2CC2)c2c(F)c(N3CCSCC3)c(F)cc2c1=O	MIC90	-	16 µg/mL
O=C(O)c1cn(C2CC2)c2c(F)c(N3CCS(=O)(=O)CC3)c(F)cc2c1=O	MIC	1172733	2 µg/mL
CC[C@@H](CO)NCCN[C@@H](CC)CO	MIC90	37 strains	8 µg/mL
CO[C@H]1/C=C/O[C@@]2(C)Oc3c(C)c(O)c4c(O)c(c(/C=N/N5CCN(C6CCCC6)CC5)c(O)c4c3C2=O)NC(=O)/C(C)=C\C=C\[C@H](C)[C@H](O)[C@@H](C)[C@@H](O)[C@@H](C)[C@H](OC(C)=O)[C@@H]1C	MIC90	-	0.81 µg/mL
CC[C@@H](CO)NCCN[C@@H](CC)CO	MIC	1339-3	1.9 µg/mL
CC1CN(c2c(F)c(N)c3c(=O)c(C(=O)O)cn(C4CC4)c3c2F)CCN1C	MIC50	-	0.5 µg/mL
COc1c(N2CCNC(C)C2)c(F)cc2c(=O)c(C(=O)O)cn(C3CC3)c12	MIC50	20 strains	3.13 µg/mL
CN[C@@H]1[C@H](O)[C@H](NC)[C@H]2O[C@@]3(O)C(=O)C[C@@H](C)O[C@H]3O[C@@H]2[C@H]1O	MIC50	25 isolates	64 µg/mL
CCN=c1cc2n(-c3ccc(Cl)cc3)c3ccccc3nc-2cc1Nc1ccc(Cl)cc1	MIC90	-	0.12 µg/mL
NC[C@H]1O[C@H](O[C@H]2[C@H](O)[C@@H](O[C@H]3O[C@H](CO)[C@@H](O)[C@H](N)[C@H]3O)[C@H](N)C[C@@H]2N)[C@H](O)[C@@H](O)[C@@H]1O	MIC	N-259 (HIV-)	8 µg/mL
CN(C)CC(=O)Nc1cc(N(C)C)c2c(c1O)C(O)=C1C(=O)[C@]3(O)C(O)=C(C(N)=O)C(=O)[C@@H](N(C)C)[C@@H]3C[C@@H]1C2	MIC	2 strains	>128 µg/mL
CN[C@@H]1[C@H](O[C@H]2[C@H](O[C@H]3[C@H](O)[C@@H](O)[C@H](N=C(N)N)[C@@H](O)[C@@H]3N=C(N)N)O[C@@H](C)[C@]2(O)C=O)O[C@@H](CO)[C@H](O)[C@H]1O	MIC	N-444	4 µg/mL
O=C(O)c1cn(C2CC2)c2c(Cl)c(N3C[C@@H]4CCCN[C@@H]4C3)c(F)cc2c1=O	MIC50	-	2 µg/mL
NCC[C@H](O)C(=O)N[C@@H]1C[C@H](N)[C@@H](O[C@H]2O[C@H](CN)[C@@H](O)[C@H](O)[C@H]2O)[C@H](O)[C@H]1O[C@H]1O[C@H](CO)[C@@H](O)[C@H](N)[C@H]1O	MIC50	37 strains	4 µg/mL
O=C(O)c1cn(C2CC2)c2c(F)c(N3CCC(n4ccnc4)C3)c(F)cc2c1=O	MIC50	-	8 µg/mL
Cc1cc(NS(=O)(=O)c2ccc(N)cc2)no1	MIC	11 strains	≥100 µg/mL
C[C@H]1COc2c(N3CCN(C)CC3)c(F)cc3c(=O)c(C(=O)O)cn1c23	MIC90	20 strains	25 µg/mL
CC[C@H]1OC(=O)[C@H](C)[C@@H](O[C@H]2C[C@@](C)(OC)[C@@H](O)[C@H](C)O2)[C@H](C)[C@@H](O[C@@H]2O[C@H](C)C[C@H](N(C)C)[C@H]2O)[C@](C)(OC)C[C@@H](C)C(=O)[C@H](C)[C@@H](O)[C@]1(C)O	MIC	1069	16 µg/mL
CCN(CC)CC1CCN(c2c(F)cc3c(=O)c(C(=O)O)cn(C4CC4)c3c2F)C1	MIC90	-	8 µg/mL
CN(C)CC1CCN(c2c(F)cc3c(=O)c(C(=O)O)cn(C4CC4)c3c2F)C1	MIC	PI12/39	0.5 µg/mL
CCNCC1CCN(c2c(F)cc3c(=O)c(C(=O)O)cn(CC)c3c2F)C1	MIC90	-	25.3 µg/mL
O=C(O)c1cn(C2CC2)c2c(F)c(N3CCS(=O)(=O)CC3)c(F)cc2c1=O	MIC90	-	4 µg/mL
COC1CCN(c2c(F)cc3c(=O)c(C(=O)O)cn(C4CC4)c3c2F)C1	MIC	PI12/39	1 µg/mL
CO/N=C(/C(=O)N[C@@H]1C(=O)N2C(C(=O)O)=C(COC(N)=O)CS[C@H]12)c1ccco1	MIC50	-	17.3 µg/mL

Repeating the first 8 entries:

structure | endpoint | strain or isolate | result
Clc1ccc2c(c1)nc1cc(Nc3ccccc3)c(=NC3CCCCC3)cc-1n2-c1ccccc1 | MIC90 | - | 0.17 µg/mL
CO[C@H]1/C=C/O[C@@]2(C)Oc3c(C)c(O)c4c(O)c(c(/C=N/N5CCN(C/C=C/c6ccccc6)CC5)c(O)c4c3C2=O)NC(=O)/C(C)=C\C=C\[C@H](C)[C@H](O)[C@@H](C)[C@@H](O)[C@@H](C)[C@H](OC(C)=O)[C@@H]1C | MIC | CH4 | 0.06 µg/mL
NCC1(O)CCN(c2c(F)cc3c(=O)c(C(=O)O)cn(N4CC4)c3c2F)C1 | MIC | 1915112 | 32 µg/mL
CO[C@H]1/C=C/O[C@@]2(C)Oc3c(C)c(O)c4c(O)c(c(/C=N/N5CCN(C)CC5)c(O)c4c3C2=O)NC(=O)/C(C)=C\C=C\[C@H](C)[C@H](O)[C@@H](C)[C@@H](O)[C@@H](C)[C@H](OC(C)=O)[C@@H]1C | MIC | - | >25 µg/mL
NNC(=O)c1ccncc1 | MIC | 1168 | 8 µg/mL
CC1CCN(c2c(F)cc3c(=O)c(C(=O)O)cn(C4CC4)c3c2F)C1 | MIC | PI12/39 | 2 µg/mL
NC[C@H]1O[C@H](O[C@H]2[C@H](O)[C@@H](O[C@H]3O[C@H](CO)[C@@H](O)[C@H](N)[C@H]3O)[C@H](N)C[C@@H]2N)[C@H](O)[C@@H](O)[C@@H]1O | MIC90 | - | 5.45 µg/mL
COc1c(N2C[C@@H]3CCCN[C@@H]3C2)c(F)cc2c(=O)c(C(=O)O)cn(C3CC3)c12 | MIC | 101 | 0.1 µg/mL